According to paper PMC4703070, “cryo-EM structures of the E. coli replicative DNA polymerase reveal its dynamic interactions with the DNA sliding clamp, exonuclease and τ” (eLife, 2015):

B1: E. coli DNA sliding clamp β (natural protein)
chain: MKFTVEREHLLKPLQQVSGPLGGRPTLPILGNLLLQVADGTLSLTGTDLEMEMVARVALVQPHEPGATTVPARKFFDICRGLPEGAEIAVQLEGERMLVRSGRSRFSLSTLPAADFPNLDDWQSEVEFTLPQATMKRLIEATQFSMAHQDVRYYLNGMLFETEGEELRTVATDGHRLAVCSMPIGQSLPSHSVIVPRKGVIELMRMLDGGDNPLRVQIGSNNIRAHVGDFIFTSKLVDGRFPDYRRVLPKNPDKHLEAGCDLLKQAFARAAILSNEKFRGVRLYVSENQLKITANNPEQEEAEEILDVTYSGAEMEIGFNVSYVLDVLNALKCENVRMMLTDSVSSVQIEDAASQSAAYVVMPMRL
notes: DNA polymerase III β subunit (DNA sliding clamp), E. coli; dimeric; It says that His-tags were removed with 3C protease but not which of the proteins carried one; also called β subunit; source: E. coli (DE3) BL21, purified (as described in Toste Rêgo et al., 2013)

Experiments:
Settings in all cases: both partners purified
[1] = target: T1, E. coli DNA polymerase III α with improved clamp binding motif (PolIIIα^QLDLF) (E. coli, UniProt P10443 1-1160, 920-924 QADMF to QLDLF); assay: cryo-EM structure; four-protein complex assembled at 15 μM, gel filtration in 25 mM Hepes pH 7.5, 50 mM potassium glutamate, 3 mM magnesium acetate, 2 mM DTT; peak fraction (~4 μM) with 20 μM 25 bp DNA substrate; DNA-free (8.3 Å), DNA-bound (8.0 Å) and DNA-bound without tail (7.3 Å) classes from a single data set; crystal and NMR structures fitted as rigid bodies
T1 construct: DNA polymerase III subunit α (PolIIIα), E. coli; It says that His-tags were removed with 3C protease but not which of the proteins carried one; PDB 2HNH lacks the C-terminal tail; source: E. coli (DE3) BL21, purified (as described in Toste Rêgo et al., 2013)
T1 sequence (looked up): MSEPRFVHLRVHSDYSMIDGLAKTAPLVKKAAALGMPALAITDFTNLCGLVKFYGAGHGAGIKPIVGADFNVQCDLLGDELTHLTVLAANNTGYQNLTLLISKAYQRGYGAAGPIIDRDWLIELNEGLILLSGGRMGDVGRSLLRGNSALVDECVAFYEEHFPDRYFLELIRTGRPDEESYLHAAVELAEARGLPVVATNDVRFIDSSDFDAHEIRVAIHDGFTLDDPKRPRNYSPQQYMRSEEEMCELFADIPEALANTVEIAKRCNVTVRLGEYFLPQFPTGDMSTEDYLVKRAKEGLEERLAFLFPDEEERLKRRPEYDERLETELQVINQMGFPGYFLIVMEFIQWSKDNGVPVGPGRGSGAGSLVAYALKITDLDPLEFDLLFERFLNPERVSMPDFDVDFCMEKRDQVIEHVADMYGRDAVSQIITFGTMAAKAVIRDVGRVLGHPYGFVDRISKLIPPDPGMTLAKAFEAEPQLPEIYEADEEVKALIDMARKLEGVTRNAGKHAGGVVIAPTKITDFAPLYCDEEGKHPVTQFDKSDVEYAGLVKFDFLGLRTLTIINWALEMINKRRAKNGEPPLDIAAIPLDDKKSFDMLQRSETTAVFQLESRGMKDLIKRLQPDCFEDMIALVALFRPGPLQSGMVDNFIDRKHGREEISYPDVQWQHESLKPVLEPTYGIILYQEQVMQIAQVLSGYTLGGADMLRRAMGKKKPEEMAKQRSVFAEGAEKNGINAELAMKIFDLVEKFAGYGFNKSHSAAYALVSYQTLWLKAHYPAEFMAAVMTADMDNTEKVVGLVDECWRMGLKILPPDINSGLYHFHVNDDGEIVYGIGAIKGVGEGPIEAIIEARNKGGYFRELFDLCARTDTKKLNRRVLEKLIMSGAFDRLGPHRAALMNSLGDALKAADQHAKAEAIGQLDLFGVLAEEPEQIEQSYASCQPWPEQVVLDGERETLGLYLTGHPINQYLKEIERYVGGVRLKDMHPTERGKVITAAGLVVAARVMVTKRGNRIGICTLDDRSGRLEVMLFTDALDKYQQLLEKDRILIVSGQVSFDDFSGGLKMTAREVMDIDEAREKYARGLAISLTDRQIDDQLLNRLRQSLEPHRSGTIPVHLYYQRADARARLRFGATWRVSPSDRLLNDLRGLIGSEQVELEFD

[2] = target: T2, E. coli DNA polymerase III α, wild type (E. coli, UniProt P10443 1-1160); assay: SEC; 2.4 mL Superdex 200 Increase, 25 mM Hepes pH 7.5, 150 mM NaCl, 2 mM DTT; PolIIIα-clamp-exonuclease complex assembled at 10, 1 and 0.1 μM, 50 μL injected
T2 construct: DNA polymerase III subunit α (PolIIIα), E. coli, wild type; parent of m1, whose fitted model covers residues 1-1160; also called PolIIIα; wild-type PolIIIα; source: E. coli (DE3) BL21, purified (as described in Toste Rêgo et al., 2013)
T2 sequence (looked up): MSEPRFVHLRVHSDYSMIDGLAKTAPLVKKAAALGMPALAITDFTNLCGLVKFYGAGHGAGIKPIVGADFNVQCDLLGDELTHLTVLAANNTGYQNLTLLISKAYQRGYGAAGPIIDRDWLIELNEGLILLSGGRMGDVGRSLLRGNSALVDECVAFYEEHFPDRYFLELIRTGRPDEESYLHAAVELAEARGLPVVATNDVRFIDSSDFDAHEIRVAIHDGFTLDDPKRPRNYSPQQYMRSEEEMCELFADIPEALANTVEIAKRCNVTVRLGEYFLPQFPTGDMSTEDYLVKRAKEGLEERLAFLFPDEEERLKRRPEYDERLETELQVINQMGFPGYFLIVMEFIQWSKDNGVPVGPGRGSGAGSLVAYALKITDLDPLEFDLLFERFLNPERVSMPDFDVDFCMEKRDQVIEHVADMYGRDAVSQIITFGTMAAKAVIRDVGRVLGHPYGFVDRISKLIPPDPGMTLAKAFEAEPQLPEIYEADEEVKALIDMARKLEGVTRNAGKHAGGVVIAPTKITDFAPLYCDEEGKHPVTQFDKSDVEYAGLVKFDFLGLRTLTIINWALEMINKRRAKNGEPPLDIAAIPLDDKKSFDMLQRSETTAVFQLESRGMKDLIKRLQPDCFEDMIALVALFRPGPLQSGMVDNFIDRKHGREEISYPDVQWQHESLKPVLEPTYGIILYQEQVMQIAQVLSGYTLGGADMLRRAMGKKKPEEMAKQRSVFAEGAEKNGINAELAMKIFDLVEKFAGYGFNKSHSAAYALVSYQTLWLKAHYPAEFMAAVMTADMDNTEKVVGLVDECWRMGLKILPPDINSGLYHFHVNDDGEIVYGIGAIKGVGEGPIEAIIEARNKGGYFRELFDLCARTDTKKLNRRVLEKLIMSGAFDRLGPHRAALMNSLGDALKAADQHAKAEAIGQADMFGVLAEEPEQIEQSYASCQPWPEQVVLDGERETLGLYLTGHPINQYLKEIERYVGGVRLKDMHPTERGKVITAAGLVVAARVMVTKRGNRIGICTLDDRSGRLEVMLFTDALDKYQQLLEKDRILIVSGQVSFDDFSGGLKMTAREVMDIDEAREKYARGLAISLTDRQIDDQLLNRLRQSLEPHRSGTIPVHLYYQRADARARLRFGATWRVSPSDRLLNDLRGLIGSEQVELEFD

[3] = target: B1; assay: as above

B1
binding result [1]: binds

B2: E. coli proofreading exonuclease ε, wild type (enzyme, UniProt P03007 1-243, looked up)
chain: MSTAITRQIVLDTETTGMNQIGAHYEGHKIIEIGAVEVVNRRLTGNNFHVYLKPDRLVDPEAFGVHGIADEFLLDKPTFAEVADEFMDYIRGAELVIHNAAFDIGFMDYEFSLLKRDIPKTNTFCKVTDSLAVARKMFPGKRNSLDALCARYEIDNSKRTLHGALLDAQILAEVYLAMTGGQTSMAFAMEGETQQQQGEATIQRIVRQASKLRVVFATDEEIAAHEARLDLVQKKGGSCLWRA
notes: DNA polymerase III subunit ε (proofreading exonuclease), E. coli, wild type; parent of m3; source: E. coli (DE3) BL21, purified (as described in Toste Rêgo et al., 2013)
binding result [2]: binds
binding result [3]: binds
